Results as given in ChEMBL document CHEMBL1134822, “Trifluoromethyl-containing 3-alkoxymethyl- and 3-aryloxymethyl-2-pyridinones are potent inhibitors of HIV-1 non-nucleoside reverse transcriptase” (Bioorg Med Chem Lett, 2001).

System: HIV-1 reverse transcriptase (Human immunodeficiency virus 1)
Assay: Compound was evaluated for its ability to inhibit the mutant K103N NNRTI HIV-1 enzyme

## CCCOC(C#CC1CC1)(c1cc(CC)c(C)nc1O)C(F)(F)F (configuration not stated)
  IC90: 144 nM

## CCc1cc(NCc2nc3c(Cl)ccc(Cl)c3o2)c(O)nc1C [L-697661]
  IC90: 800 nM
